Anti-infective test results gathered from many reports (values: NIAID ChemDB through PubChem).

Shared fields: growth or infection tests; species: HIV-1; cell line: MT-4; measure: EC50

ECn: concentration that inhibits the pathogen or its effect by n%.

structure | strain or isolate | mutations | method | result
Cc1nc2c(ccn2Cc2ccc(F)c(F)c2)c(-c2ccc3c(c2C)CCCO3)c1[C@H](OC(C)(C)C)C(=O)O | - | - | luciferase | 0.008 µM
O=S1(=O)N=C(Nc2ccc(Cl)c(F)c2)C=C(Cc2ccc3ccccc3c2)N1 | IIIB | - | MTT | >152 µM
C=CCOc1cccc(Cc2[nH]c(=S)[nH]c(=O)c2CC)c1 | RT-Y181C Mutant NNRTI-resistant | - | cytopathic effect / MTT | >20 µM
C=CCOCn1c(C(F)c2cccc(C#N)c2)c(CC)c(=O)[nH]c1=O | IIIB | Y181C | MTT | 1.5 µM
COc1ccc(CCN2C(=O)/C(=C\c3cccc(Oc4ccccc4)c3)N(CCc3ccc(OC)c(OC)c3)C2=S)cc1OC | IIIB | - | cytopathic effect / MTT | >37.8 µg/mL
C=CCCc1cccc(Cc2[nH]c(=O)[nH]c(=O)c2CC)c1 | IIIB | - | cytopathic effect / MTT | >66 µM
N#CC1=CC2C(c3ccccc3N2Cc2ccccn2)N(c2ccc([N+](=O)[O-])cc2)C1=O | LAI | - | cytopathic effect / MTT | 1–32 µM
C=C(c1cc(C)cc(C)c1)c1c(CC)c(=O)[nH]c(=O)n1COC1Cc2ccccc2C1 | IIIB | - | cytopathic effect / MTT | 0.3 µM
O=S(=O)(O)O.OCC1O[C@H](O)[C@@H](O)[C@H](O)C1O | IIIB | - | cytopathic effect / MTT | >300 µg/mL
C=C(c1cc(C)cc(C)c1)c1c(CC)c(=O)[nH]c(=O)n1COC/C=C/c1ccccc1 | IIIB | RT-K103N Y181C | cytopathic effect / MTT | >100 µM
CCc1c(C(=O)c2cccc(C#N)c2)n(Cc2cccc(C#N)c2)c(=O)[nH]c1=O | IIIB | Y181C | MTT | 46 µM
C=CCOc1cccc(Cc2nc(SC(C)C)nc(OC(C)C)c2CC)c1 | RT-Y181C Mutant NNRTI-resistant | - | cytopathic effect / MTT | >100 µM
CCc1c(Cl)nc(Nc2ccc(C#N)cc2)nc1Oc1ccc2cc(Br)ccc2c1Br | IIIB | WT | MTT | 17.11 µM
Cc1ccc(CN=C2C=C(Cc3ccccc3)NS(=O)(=O)N2)cc1 | IIIB | - | MTT | >192 µM
Nc1nc(N)c2ncn([C@H]3C[C@@H](OCP(=O)(O)O)CO3)c2n1 | IIIB | - | MTT / absorbance | 11.17 µM
C=CCOCn1c(Cc2cccc(OCC=C)c2)c(CC)c(=O)[nH]c1=O | RT-K103N Y181C Mutant NNRTI-resistant | - | cytopathic effect / MTT | >44 µM
Cc1nc2c(ccn2Cc2cccc(F)c2F)c(-c2ccc3c(c2C)CCCO3)c1[C@H](OC(C)(C)C)C(=O)O | - | - | luciferase | 0.009 µM
C=CCCc1cccc(Cc2[nH]c(=S)[nH]c(=O)c2CC)c1 | RT-Y181C Mutant NNRTI-resistant | - | cytopathic effect / MTT | >80 µM
O=S(=O)(O)O.O=S(=O)(O)O.O=S(=O)(O)O.O=S(=O)(O)O.O=S(=O)(O)O.O=S(=O)(O)O.O=S(=O)(O)O.O=S(=O)(O)O.O=S(=O)(O)O.O=S(=O)(O)O.O=S(=O)(O)O.O=S(=O)(O)O.OC[C@H]1O[C@@H]2O[C@H]3[C@H](O)[C@@H](O)[C@@H](O[C@H]4[C@H](O)[C@@H](O)[C@@H](O[C@H]5[C@H](O)[C@@H](O)[C@@H](O[C@H]6[C@H](O)[C@@H](O)[C@@H](O[C@H]7[C@H](O)[C@@H](O)[C@@H](O[C@H]1[C@H](O)[C@H]2O)O[C@@H]7CO)O[C@@H]6CO)O[C@@H]5CO)O[C@@H]4CO)O[C@@H]3CO | IIIB | - | cytopathic effect / MTT | 6.5 µg/mL
NNC(=O)Cc1nc2n(n1)CCCCC2 | IIIB | - | cytopathic effect | >125 µg/mL
C=CCCc1cccc(Cc2c(CC)c(=O)[nH]c(=O)n2COCC=C)c1 | RT-Y181C Mutant NNRTI-resistant | - | cytopathic effect / MTT | 1 µM
COc1ccc(-n2c(Cc3nc4n(n3)CCCC4)n[nH]c2=S)cc1 | IIIB | - | cytopathic effect | >97.4 µg/mL
Cc1c(-c2c(C)c3c(c(C)c2[C@H](OC(C)(C)C)C(=O)O)CN(C(=O)N2CCOC[C@@H]2C)C3)cc(F)c2c1CCCO2 | IIIB | - | luciferase | 0.036 µM
Cc1nc(Cc2n[nH]c(=S)n2-c2ccccc2)nn1C | IIIB | - | cytopathic effect | >59.3 µg/mL
CCCOC(=O)[C@H](Cc1ccccc1)NP(=O)(CO[C@H]1CO[C@@H](n2cc(F)c(=O)[nH]c2=O)C1)N[C@@H](Cc1ccccc1)C(=O)OCCC | IIIB | - | MTT / absorbance | >64 µM
CCc1cc(=O)c2ccc3c(c2o1)[C@@H](OC(=O)C12CCC(C)(C(=O)O1)C2(C)C)[C@@H](OC(=O)C12CCC(C)(C(=O)O1)C2(C)C)C(C)(C)O3 | RTMDR1 | RT-M41L L74V V106A T215Y | p24 | 0.06 µM
CCn1nc(-c2ccc(Cn3ccc4ccccc43)cc2)nc1C | IIIB | - | cytopathic effect | >0.48 µg/mL
Nc1ncnc2c1ccn2/C=C/[C@H](CO)OCP(=O)(O)O | IIIB | - | MTT / absorbance | >398 µM
Cc1c(-c2c(C)c3c(c(C)c2C(OC(C)(C)C)C(=O)O)CN(C(=O)c2cccc(F)c2)C3)ccc2c1NCCO2 | IIIB | - | luciferase | 0.036 µM
CCCOC(=O)[C@H](Cc1ccccc1)NP(=O)(CO[C@H]1CO[C@@H](n2cnc3c(NC4CC4)nc(N)nc32)C1)N[C@@H](Cc1ccccc1)C(=O)OCCC | IIIB | - | MTT / absorbance | 3.63 µM
CNc1nc(Nc2ccc(C#N)cc2)nc(Oc2ccc3cc(C#N)ccc3c2)c1C(C)C | IIIB | WT | MTT | 0.008 µM
Cn1c2ccccc2c(=O)c2c(O)cccc21 | IIIB | - | cytopathic effect / MTT | >15 µg/mL
O=S(=O)(O)O.OCC1OC(OC2C(O)C(CO)OC(OC3C(O)C(CO)OC(OC4C(O)C(O)OC(CO)C4O)C3O)C2O)C(O)C(O)C1O | IIIB | - | cytopathic effect / MTT | >300 µg/mL
O=S1(=O)N=C(Nc2ccc(F)c(F)c2)C=C(Cc2ccc3ccccc3c2)N1 | IIIB | - | MTT | >156 µM
CC(C)CN(C[C@@H](O)[C@H](Cc1ccccc1)NC(=O)O[C@H]1CO[C@H]2OCC[C@H]21)S(=O)(=O)c1ccc2c(c1)OCO2 | NL4-3 (LPV1) | L10F M46I I54V V82A | p24 | 0.0075 µM
CCOCn1c(Cc2cccc(OCC=NO)c2)c(CC)c(=O)[nH]c1=O | IIIB | - | cytopathic effect / MTT | 0.3 µM
O=C(O)c1ccc(N2C(=O)C=CC3Nc4ccccc4C32)cc1 | LAI | - | cytopathic effect / MTT | 1–32 µM
CCCOCn1c(C(F)c2cccc(C#N)c2)c(CC)c(=O)[nH]c1=O | IIIB | - | MTT | 0.07 µM
Cc1ccc(-c2c(C)c3c(c(C)c2[C@H](OC(C)(C)C)C(=O)O)CN(C2CCC[C@@H](C)C2)C3)cc1 | IIIB | - | luciferase | 0.723 µM
COc1ccc(CCN2C(=O)/C(=C\c3cccc(Cl)c3)N(CCc3ccc(OC)c(OC)c3)C2=S)cc1OC | IIIB | - | cytopathic effect / MTT | >38.75 µg/mL
O=S1(=O)N=C(Nc2cccc(Cl)c2)C=C(Cc2cccc3ccccc23)N1 | IIIB | - | MTT | >161 µM
COc1ccc(CCN2C(=O)/C(=C\c3cccc(Br)c3)N(CCc3ccc(OC)c(OC)c3)C2=S)cc1OC | IIIB | - | cytopathic effect / MTT | >109.2 µg/mL
N#Cc1ccc(Nc2nccc(Oc3cc4ccc(Br)cc4cc3Br)n2)cc1 | IIIB | WT | MTT | 0.005 µM
Cc1ccc(-c2c([C@@H](OC(C)(C)C)C(=O)O)c(C)nc3c2ccn3Cc2ccc(F)cc2F)cc1 | - | - | luciferase | 36 µM
COc1ccc(CCN2C(=O)/C(=C\c3ccc(F)cc3)N(CCc3ccc(OC)c(OC)c3)C2=S)cc1OC | IIIB | - | cytopathic effect / MTT | >18.5 µg/mL
Cc1ccc(NC2=NS(=O)(=O)NC(Cc3ccccc3)=C2)cc1C | IIIB | - | MTT | >177 µM
C=C(c1cc(C)cc(C)c1)c1c(CC)c(=O)[nH]c(=O)n1COCC | IIIB | RT-Y181C | cytopathic effect / MTT | 17 µM
N#Cc1ccc(NC2=NS(=O)(=O)NC(Cc3ccccc3)=C2)cc1 | IIIB | - | MTT | >369 µM
Cc1nc(CC(=O)NN)nn1C | IIIB | - | cytopathic effect | >102 µg/mL
Cc1cc(C)c(NC2=NS(=O)(=O)NC(Cc3ccc4ccccc4c3)=C2)c(C)c1 | IIIB | - | MTT | >96 µM
CC(C)c1c(Cl)nc(Nc2ccc(C#N)cc2)nc1Oc1ccc2ccccc2c1Br | IIIB | WT | MTT | 0.208 µM
Nc1ncnc2c1ncn2[C@H]1C[C@@H](OCP(=O)(O)O)CO1 | IIIB | - | MTT / absorbance | 4.69 µM
Cn1c2ccccc2c2c1cc(C#N)c(=O)n2-c1ccc([N+](=O)[O-])cc1 | E | RT-F227C | cytopathic effect / MTT | 0.06 µM
S=c1[nH]nc(Cc2nc3n(n2)CCCCC3)o1 | IIIB | - | cytopathic effect | >66.6 µg/mL
Nc1ncnc2c1ncn2[C@H]1C=C[C@@H](CO)[C@@H]1CO | IIIB | - | XTT | 1.8 µg/mL
COc1ccc(NC2=NS(=O)(=O)NC(Cc3ccc4ccccc4c3)=C2)cc1 | IIIB | - | MTT | >165 µM
C=CCOc1cccc(Cc2[nH]c(=O)[nH]c(=O)c2CC)c1 | RT-K103N Y181C Mutant NNRTI-resistant | - | cytopathic effect / MTT | >20 µM
CCc1c(NC)nc(Nc2ccc(C#N)cc2)nc1Oc1ccc2ccccc2c1Br | IIIB | K103N + Y181C | MTT | 3.01 µM
COc1ccc(CCN2C(=O)/C(=C\c3ccccc3-c3ccco3)N(CCc3ccc(OC)c(OC)c3)C2=S)cc1OC | IIIB | - | cytopathic effect / MTT | >17.35 µg/mL
CNc1cc(Oc2ccc3cc(Br)ccc3c2)nc(Nc2ccc(C#N)cc2)n1 | IIIB | WT | MTT | 0.359 µM
COc1ccc(N2C(=O)C(C#N)=CC3C2c2ccccc2N3C)cc1 | LAI | - | cytopathic effect / MTT | 1–32 µM
Cc1cc(C#N)cc(C)c1Oc1nc(NC2CCN(CC(=O)N3CCOCC3)CC2)nc2ccsc12 | - | F227L V106A | MTT | ≥17.9 µg/mL

5 of the rows above, restated:

structure,strain or isolate,mutations,method,result
Cc1nc2c(ccn2Cc2cccc(F)c2F)c(-c2ccc3c(c2C)CCCO3)c1[C@H](OC(C)(C)C)C(=O)O,-,-,luciferase,0.009 µM
N#Cc1ccc(NC2=NS(=O)(=O)NC(Cc3ccccc3)=C2)cc1,IIIB,-,MTT,>369 µM
N#Cc1ccc(Nc2nccc(Oc3cc4ccc(Br)cc4cc3Br)n2)cc1,IIIB,WT,MTT,0.005 µM
C=C(c1cc(C)cc(C)c1)c1c(CC)c(=O)[nH]c(=O)n1COCC,IIIB,RT-Y181C,cytopathic effect / MTT,17 µM
S=c1[nH]nc(Cc2nc3n(n2)CCCCC3)o1,IIIB,-,cytopathic effect,>66.6 µg/mL

An empty or dashed field is not shown. Two numbers with a dash give a range or band. Rows are shuffled and stem from different studies.